Data from paper PMC3621830.
The exact form of at least one protein or probe is not confirmed.

Target: CovR, acetyl phosphate-treated (phospho-CovR) (UniProt Q8DY68)
Test: EMSA
Details: shift at lower concentration than unphosphorylated CovR, probe 3.3 nM, EMSA: 3.3 nM biotin-labelled probe, 20 min at room temperature, native 6% polyacrylamide gel, chemiluminescence, salt and pH not stated, recombinant protein, residues 1-229, protein details: His tag (pET21b+ NdeI/XhoI, C-terminal implied), label: biotin (labelled probe), unlabelled as competitor, probe letters rebuilt from the primers and the genome

“ATAATAGATTATTTTAGATAGAAACAACCCAAACCCTTAGATTTTACTAAGGGTTTTTTGTGTGGAAAATAACATATATATCCGATTAAATTATAAAAAAATAATCTTTTGATTATTTTTACTAGATTGTTGAGCAAAAAAACATTAAAAAAAAGATGTTTATTTTAATAAAATGTAAATAAATTAAAGAAAAGTGTTGAAATAAAAAACTCCAAGTTATATAATTAGTTAAGGAACTCAAATTAAATTAAAATAAACGTGGTCCTATCCTAATAAATTAGGATTTTCAACTAACTATATAAAGGAGCGAATATG (double strand) [PbibA (bibA promoter fragment)]”: binds.
